Anti-infective test results gathered from many reports (values: NIAID ChemDB through PubChem).

All rows: tests in culture; species: HIV-2; strain or isolate: ROD; read by: MTT; measure: EC50

Neighbouring rows are from separate reports.

SMILES | cell line | value
Nc1nc(-c2ccc(Br)cc2Br)c(SCC(=O)Nc2ccccc2Br)s1 | MT-4 | >33.18 µM
COP(=O)(O)C[C@H](NP(=O)(O)OC[C@@H]1C=C[C@H](n2cc(C)c(=O)[nH]c2=O)O1)C(=O)O | CEM/TK- | 177 µM
Cc1cc(NCc2cccc3ccccc23)cc(=O)o1 | CEM | >10 µM
CC(=O)Nc1cnc(Oc2c(Cl)cccc2Cl)nc1Nc1ccc(C#N)cc1 | MT-4 | >193.7 µM
Cc1cc(C)cc(C(=O)c2cccnc2Nc2ccc(S(N)(=O)=O)cc2)c1 | MT-4 | >176 µM
O=S1(=O)NC(Cc2ccccc2)=CC(=NCc2ccccc2)N1 | MT-4 | >238 µM
Cc1cc(N[C@H](C)c2cccc3ccccc23)cc(=O)o1 | CEM | >10 µM
Cc1cc(C)cc(C(=O)c2cccnc2Nc2ccc(C(F)(F)F)cc2)c1 | MT-4 | >106 µM
Nc1nc(-c2ccc(Br)cc2Br)c(SCC(=O)Nc2ccccc2Cl)s1 | MT-4 | >23.67 µM
COc1ccc(CCN=C2C=C(Cc3ccccc3)NS(=O)(=O)N2)cc1 | MT-4 | >209 µM
Cc1cc(C)cc(C(=O)c2cccnc2Nc2ccc(C(N)=O)cc2)c1 | MT-4 | >36.42 µM
O=S1(=O)N=C(Nc2ccc(Cl)cc2)C=C(Cc2ccccc2)N1 | MT-4 | >179 µM
Cc1cn([C@H]2C=C[C@@H](COP(=O)(O)O)O2)c(=O)[nH]c1=O | CEM | 1.64 µM
COc1ccc(CN=C2C=C(Cc3ccccc3)NS(=O)(=O)N2)cc1 | MT-4 | >300 µM
O=C(CSc1sc(Cl)nc1-c1ccc(Br)cc1Br)Nc1ccc(Cl)cc1Cl | MT-4 | >159 µM
NC(=O)c1ccc(NC2=NS(=O)(=O)NC(Cc3ccccc3)=C2)cc1 | MT-4 | >286 µM
CCc1c(NCc2cccc3ccccc23)cc(C)oc1=O | CEM | >10 µM
Cc1cn([C@H]2C=C[C@@H](COP(=O)(O)N[C@@H](CC(=O)O)C(=O)O)O2)c(=O)[nH]c1=O | MT-4 | 0.24 µM
COc1ccc(CCN=C2C=C(Cc3ccc4ccccc4c3)NS(=O)(=O)N2)cc1 | MT-4 | >159 µM
Cc1cc(Br)cc(C)c1Oc1ncc(NC(=O)C(F)(F)F)c(Nc2ccc(C#N)cc2)n1 | MT-4 | 36.04 µM
CC(=O)c1ccc(Nc2ncccc2C(=O)c2cc(C)cc(C)c2)cc1 | MT-4 | >34.78 µM
Cc1cc(N[C@@H](C)c2cccc3ccccc23)c(C(=O)C(Cl)Cl)c(=O)o1 | CEM | >2 µM
Cc1cc(C#N)cc(C)c1Oc1ncc(N)c(Nc2ccc(C#N)cc2)n1 | MT-4 | >35.1 µM
Cc1cc([N+](=O)[O-])ccc1NC(=O)CSc1sc(Cl)nc1-c1ccc(Br)cc1Br | MT-4 | >127.4 µM
Nc1ccn([C@@H]2CS[C@H](CO)O2)c(=O)n1 | MT-4 | 8.79 µM
CC(=O)Nc1cnc(Oc2c(C)cc(C#N)cc2C)nc1Nc1ccc(C#N)cc1 | MT-4 | >30.11 µM
O=S1(=O)NC(Cc2ccc3ccccc3c2)=CC(=NCCc2ccccc2)N1 | MT-4 | >141 µM
N#Cc1ccc(Nc2nc(Oc3c(Cl)cc(Cl)cc3Cl)ncc2NC(=O)C(F)(F)F)cc1 | MT-4 | >5.57 µM
Nc1ccn([C@H]2CC[C@@H](CO)O2)c(=O)n1 | MT-4 | 0.88 µM

ECn: concentration that inhibits the pathogen or its effect by n%.